9 molecules from patent US9625458B2, “Biosensor” (priority 2002, dated 2017) can be followed below.

Protein sequences, listed by entry. Tags and fused reporters are not part of them. Lines headed by an entry give the natural chain unless they say otherwise; changes in a name come on top.
UniProt P02924: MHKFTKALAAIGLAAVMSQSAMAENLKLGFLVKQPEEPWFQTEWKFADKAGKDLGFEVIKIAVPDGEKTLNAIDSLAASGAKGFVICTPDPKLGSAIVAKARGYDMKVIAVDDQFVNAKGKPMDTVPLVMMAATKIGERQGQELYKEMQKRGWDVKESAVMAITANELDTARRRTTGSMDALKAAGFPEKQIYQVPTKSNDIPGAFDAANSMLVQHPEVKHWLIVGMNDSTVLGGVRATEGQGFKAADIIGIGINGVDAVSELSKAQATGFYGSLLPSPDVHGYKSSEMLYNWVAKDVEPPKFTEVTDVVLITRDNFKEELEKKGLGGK

This data set can be described thus: Fluorescence emission spectra without and with saturating ligand (wavelength shift, ΔIstd, ΔRmax). To be noted: for λmax,apo (nm) / λmax,sat (nm): emission maximum; for λmax,apo (nm): absence of ligand; for λmax,sat (nm): saturating ligand (ligand column); for ΔIstd: standard intensity change; for ΔIstd / ΔRmax: unbound vs ligand-saturated; for ΔRmax: standard ratiometric change. As for the experimental part: Fluorimetry. All measurements were conducted with an SLM Aminco-Bowman series 2 fluorimeter, with sample stirring at 25° C. Fluorescence emission spectra were acquired with excitation and emission slit widths of 4 and 8 nm, respectively. Photomultiplier tube potential was maintained between 400 and 800 volts. Protein concentrations were in the range of 50 to 1000 nM. Fluorophore-specific excitation was at the following approximate wavelengths: tryptophan, 290 nm; acrylodan, 390 nm; fluorescein, 485 nm; pyrene, 340 nm; NBD and NBDE, 490 nm; JPW4039, 485 nm; JPW4042, 470 nm; JPW4045, 470 nm.
Assessment of fluorescent biosensor function. Fluorescence emission spectra of bPBP-fluorophore conjugates were recorded in the absence and presence of saturating ligand concentrations. Spectral changes were characterized by four parameters: wavelength shift (the difference between the wavelengths of emission maximum in the unbound and ligand-saturated states), direction of intensity change (increase or decrease in intensity at the wavelengths of maximum emission in the two states), standard intensity change (ΔIstd), and standard ratiometric change (ΔR). ΔIstd is defined as the normalized intensity change relative to the average intensity, determined at the wavelength mid-point between the two emission maxima:
[formula] where λstd=(λmax, unbound+λmax, saturated)/2 and I1, I2 are the fluorescence intensities at λstd of each spectrum respectively (FIG. 4A). ΔR is defined in terms of two emission bands, A1 ([λ1, λ2]) and A2 ([λ3, λ4]) (FIG. 4B):
[formula] where ^∘A1, […] the areas in the absence of ligand, and ^∞A1, ^∞A2 the areas in the presence of saturating ligand. A computer program was used to enumerate ΔR for all possible pairs of wavelength bands in the two spectra, to identify the optimal sensing condition, defined as the maximum value of ΔR. Adjustable parameters of the algorithm, and their values used for ΔRmax quantities reported here, are: step size (2 nm), step width (10 nm), minimum integration area limit (fraction of total: 0.1), and maximum integration area limit (fraction of total: 1).

B1: Glu/Asp BP Q123C Acrylodan (conjugate, UniProt P37902 23-302, looked up, variant Q123C)
Glutamate/aspartate import …: DDAAPAAGSTLDKIAKNGVIVVGHRESSVPFSYYDNQQKVVGYSQDYSNAIVEAVKKKLNKPDLQVKLIPITSQNRIPLLQNGTFDFECGSTTNNVERQKCAAFSDTIFVVGTRLLTKKGGDIKDFANLKDKAVVVTSGTTSEVLLNKLNEEQKMNMRIISAKDHGDSFRTLESGRAVAFMMDDALLAGERAKAKKPDNWEIVGKPQSQEAYGCMLRKDDPQFKKLMDDTIAQVQTSGEAEKWFDKWFKNPIPPKNLNMNFELSDEMKALFKEPNDKALN
modifications: acrylodan label
Take B1: the “λmax,apo (nm)” value stood at 498, the “λmax,sat (nm)” value was 495, the ΔIstd is given as 0.10 and the ΔRmax is recorded as 0.40.

B2: Glu/Asp BP T129C JPW4042 (conjugate, UniProt P37902 23-302, looked up, variant T129C)
Glutamate/aspartate import …: DDAAPAAGSTLDKIAKNGVIVVGHRESSVPFSYYDNQQKVVGYSQDYSNAIVEAVKKKLNKPDLQVKLIPITSQNRIPLLQNGTFDFECGSTTNNVERQKQAAFSDCIFVVGTRLLTKKGGDIKDFANLKDKAVVVTSGTTSEVLLNKLNEEQKMNMRIISAKDHGDSFRTLESGRAVAFMMDDALLAGERAKAKKPDNWEIVGKPQSQEAYGCMLRKDDPQFKKLMDDTIAQVQTSGEAEKWFDKWFKNPIPPKNLNMNFELSDEMKALFKEPNDKALN
modifications: JPW4042 label
Turning to B2, the “λmax,apo (nm)” value was found to be 649, the “λmax,sat (nm)” value is reported as 650, the ΔIstd turned out to be 0.06 and the ΔRmax is reported as 0.68.

B3: Glu/Asp BP T129C Fluorescein (conjugate, UniProt P37902 23-302, looked up, variant T129C)
Glutamate/aspartate import …: DDAAPAAGSTLDKIAKNGVIVVGHRESSVPFSYYDNQQKVVGYSQDYSNAIVEAVKKKLNKPDLQVKLIPITSQNRIPLLQNGTFDFECGSTTNNVERQKQAAFSDCIFVVGTRLLTKKGGDIKDFANLKDKAVVVTSGTTSEVLLNKLNEEQKMNMRIISAKDHGDSFRTLESGRAVAFMMDDALLAGERAKAKKPDNWEIVGKPQSQEAYGCMLRKDDPQFKKLMDDTIAQVQTSGEAEKWFDKWFKNPIPPKNLNMNFELSDEMKALFKEPNDKALN
modifications: fluorescein conjugate
Regarding B3, the “λmax,apo (nm)” value is listed as 523, the “λmax,sat (nm)” value stood at 523, the ΔIstd came to 0.02 and the ΔRmax is given as 0.17.

B4: Glu/Asp BP Q123C Fluorescein (conjugate, UniProt P37902 23-302, looked up, variant Q123C)
Glutamate/aspartate import …: DDAAPAAGSTLDKIAKNGVIVVGHRESSVPFSYYDNQQKVVGYSQDYSNAIVEAVKKKLNKPDLQVKLIPITSQNRIPLLQNGTFDFECGSTTNNVERQKCAAFSDTIFVVGTRLLTKKGGDIKDFANLKDKAVVVTSGTTSEVLLNKLNEEQKMNMRIISAKDHGDSFRTLESGRAVAFMMDDALLAGERAKAKKPDNWEIVGKPQSQEAYGCMLRKDDPQFKKLMDDTIAQVQTSGEAEKWFDKWFKNPIPPKNLNMNFELSDEMKALFKEPNDKALN
modifications: fluorescein label
With B4, the “λmax,apo (nm)” value was 524, the “λmax,sat (nm)” value came out at 522, the ΔIstd worked out at 0.13 and the ΔRmax is 2.23.

B5: Glu/Asp BP Q123C NBD (conjugate, UniProt P37902 23-302, looked up, variant Q123C)
Glutamate/aspartate import …: DDAAPAAGSTLDKIAKNGVIVVGHRESSVPFSYYDNQQKVVGYSQDYSNAIVEAVKKKLNKPDLQVKLIPITSQNRIPLLQNGTFDFECGSTTNNVERQKCAAFSDTIFVVGTRLLTKKGGDIKDFANLKDKAVVVTSGTTSEVLLNKLNEEQKMNMRIISAKDHGDSFRTLESGRAVAFMMDDALLAGERAKAKKPDNWEIVGKPQSQEAYGCMLRKDDPQFKKLMDDTIAQVQTSGEAEKWFDKWFKNPIPPKNLNMNFELSDEMKALFKEPNDKALN
modifications: NBD conjugate
Consider B5, for which the “λmax,apo (nm)” value came out at 544, the “λmax,sat (nm)” value stood at 542, the ΔIstd came out at 0.01 and the ΔRmax amounted to 0.53.

B6: Glu/Asp BP T129C Acrylodan (conjugate, UniProt P37902 23-302, looked up, variant T129C)
Glutamate/aspartate import …: DDAAPAAGSTLDKIAKNGVIVVGHRESSVPFSYYDNQQKVVGYSQDYSNAIVEAVKKKLNKPDLQVKLIPITSQNRIPLLQNGTFDFECGSTTNNVERQKQAAFSDCIFVVGTRLLTKKGGDIKDFANLKDKAVVVTSGTTSEVLLNKLNEEQKMNMRIISAKDHGDSFRTLESGRAVAFMMDDALLAGERAKAKKPDNWEIVGKPQSQEAYGCMLRKDDPQFKKLMDDTIAQVQTSGEAEKWFDKWFKNPIPPKNLNMNFELSDEMKALFKEPNDKALN
modifications: acrylodan conjugate
On to B6, for which the “λmax,apo (nm)” value is recorded as 484, the “λmax,sat (nm)” value amounted to 482, the ΔIstd is recorded as 0.04 and the ΔRmax turned out to be 0.52.

B7: Glu/Asp BP T129C JPW4045 (conjugate, UniProt P37902 23-302, looked up, variant T129C)
Glutamate/aspartate import …: DDAAPAAGSTLDKIAKNGVIVVGHRESSVPFSYYDNQQKVVGYSQDYSNAIVEAVKKKLNKPDLQVKLIPITSQNRIPLLQNGTFDFECGSTTNNVERQKQAAFSDCIFVVGTRLLTKKGGDIKDFANLKDKAVVVTSGTTSEVLLNKLNEEQKMNMRIISAKDHGDSFRTLESGRAVAFMMDDALLAGERAKAKKPDNWEIVGKPQSQEAYGCMLRKDDPQFKKLMDDTIAQVQTSGEAEKWFDKWFKNPIPPKNLNMNFELSDEMKALFKEPNDKALN
modifications: JPW4045 dye conjugate
Regarding B7, the “λmax,apo (nm)” value worked out at 644, the “λmax,sat (nm)” value was determined as 648, the ΔIstd came out at 0.05 and the ΔRmax turned out to be 0.73.

B8: Glu/Asp BP T129C JPW4039 (conjugate, UniProt P37902 23-302, looked up, variant T129C)
Glutamate/aspartate import …: DDAAPAAGSTLDKIAKNGVIVVGHRESSVPFSYYDNQQKVVGYSQDYSNAIVEAVKKKLNKPDLQVKLIPITSQNRIPLLQNGTFDFECGSTTNNVERQKQAAFSDCIFVVGTRLLTKKGGDIKDFANLKDKAVVVTSGTTSEVLLNKLNEEQKMNMRIISAKDHGDSFRTLESGRAVAFMMDDALLAGERAKAKKPDNWEIVGKPQSQEAYGCMLRKDDPQFKKLMDDTIAQVQTSGEAEKWFDKWFKNPIPPKNLNMNFELSDEMKALFKEPNDKALN
modifications: JPW4039 dye conjugate
In the case of B8, the “λmax,apo (nm)” value was found to be 587, the “λmax,sat (nm)” value is on record as 584, the ΔIstd was found to be 0.09 and the ΔRmax is given as 0.73.

B9: arabinose BP F23C Acrylodan (conjugate, UniProt P02924 24-329, looked up, variant F23C)
L-arabinose-binding …: ENLKLGFLVKQPEEPWFQTEWKCADKAGKDLGFEVIKIAVPDGEKTLNAIDSLAASGAKGFVICTPDPKLGSAIVAKARGYDMKVIAVDDQFVNAKGKPMDTVPLVMMAATKIGERQGQELYKEMQKRGWDVKESAVMAITANELDTARRRTTGSMDALKAAGFPEKQIYQVPTKSNDIPGAFDAANSMLVQHPEVKHWLIVGMNDSTVLGGVRATEGQGFKAADIIGIGINGVDAVSELSKAQATGFYGSLLPSPDVHGYKSSEMLYNWVAKDVEPPKFTEVTDVVLITRDNFKEELEKKGLGGK
modifications: acrylodan label
Turning to B9, the “λmax,apo (nm)” value came out at 503, the “λmax,sat (nm)” value was 503, the ΔIstd is given as 0.02 and the ΔRmax worked out at 0.99.
